In patent publication US6441132B1, “Contryphan peptides” (dated 2002):

Test system: mice (9 to 21 days old)
Assay: Bioassay by intracranial injection in mice
Settings: High dose: 8-20 nmole/g

## NCC(=O)N[C@H]1CSSC[C@@H](C(N)=O)NC(=O)[C@H](Cc2c[nH]c3ccccc23)NC(=O)[C@@H]2CCCN2C(=O)[C@H](CCC(=O)O)NC(=O)[C@@H](Cc2c[nH]c3ccccc23)NC(=O)[C@@H]2C[C@@H](O)CN2C1=O
  Activity (bioactivity on intracranial injection): Paralysis of extremities, circular motion,
